A mixed list of measured activities; the numbers were collected in NIAID ChemDB.

Shared fields: whole-cell or culture tests; organism: Mycobacterium tuberculosis

MIC bound: limit read from a one-dose screen. Blank or dashed fields: not listed here. A number after MIC or MFC names an inhibition level or a share of isolates. Neighbouring rows are from separate reports. ECn is the concentration giving n% inhibition of infection, replication or growth. Percent inhibition refers to the dose given; in toxicity tests it is the harm to the cells.

structure | dose | cell line | setting | endpoint | strain | read by | value
Cc1ccc(NC(=O)c2ccccc2N)cc1 |  |  |  | MIC | My 331/88 |  | 250 µM
N#CC(Nc1ccccc1[N+](=O)[O-])c1ccc(OCc2nc3ccccc3[nH]2)cc1 | 6.25 µg/mL |  |  | inhibition | H37Rv | resazurin | 68%
COc1cc(C)c2c(Oc3cccc(C(F)(F)F)c3)c(OC)cc(NC(C)CCCN)c2n1 |  |  |  | MIC | H37Ra | resazurin | 10 µM
C=C1C(=O)[C@@]23C[C@@H]1C[C@H](O)[C@@H]2C1(CCC[C@@](C)(COC(C)=O)C1C=O)COC3=O | 12.5 µg/mL |  |  | inhibition | H37Rv | BACTEC | 5%
COc1ccc(-c2oc3cc(O)cc(O)c3c(=O)c2OC)cc1 |  |  |  | EC50 | H37Rv | BACTEC | <100 µg/mL
N#CC(Nc1ccccc1)c1ccc(OCc2nc3ccccc3[nH]2)cc1 | 6.25 µg/mL |  |  | inhibition | H37Rv | resazurin | 62%
O=c1n([C@@H]2O[C@H](CO)[C@@H](O)[C@@H]2O)ccc2nnnn12 |  |  |  | MIC bound | H37Rv | resazurin | >6.25 µg/mL
COc1ccc(NC(C#N)c2ccc(OCc3nc4ccccc4[nH]3)cc2)cc1 | 6.25 µg/mL |  |  | inhibition | H37Rv | resazurin | 63%
COC(=O)C1C(c2cc3ccccc3nc2Cl)C2=C(CCCC2=O)N(c2cccnc2)C1N |  |  |  | MIC | H37Rv |  | 100 µg/mL
CC(=O)OCC1OC(N2C(S)=C(C#N)C(c3ccco3)C(C(C)=O)=C2c2ccccc2)C(OC(C)=O)C(OC(C)=O)C1OC(C)=O |  |  |  | MIC bound | H37Rv | BACTEC | >12.5 µg/mL
Cc1c2c(OCC(O)CN3CCN(c4ccccc4)CC3)nn(C)c(=O)c2c(C)n1-c1ccccc1 |  |  |  | EC50 | H37Rv |  | >12.5 µg/mL
CO[C@H]1/C=C/O[C@@]2(C)Oc3c(C)c(O)c4c(O)c(c(/C=N/N5CCN(C)CC5)c(O)c4c3C2=O)NC(=O)/C(C)=C\C=C\[C@H](C)[C@H](O)[C@@H](C)[C@@H](O)[C@@H](C)[C@H](OC(C)=O)[C@@H]1C |  |  |  | MIC | SIT1688 | resazurin | 2 µg/mL
N/C(=N\N=C\c1cc(Cl)ccc1O)SCc1cccc(Cl)c1 |  |  | 14 d | MIC | H37Rv | broth dilution | 32 µM
O=C(Cc1cccs1)N[C@@H]1C(=O)N2C(C(=O)[O-])=C(C[n+]3ccccc3)CS[C@H]12 |  |  |  | MIC | H37Rv | resazurin | 4 µg/mL
O=C(O)c1cnc2c(ccc3[nH]cccc32)c1=O |  |  |  | MIC bound | H37Rv | BACTEC | >12.5 µg/mL
CCn1cc(C(=O)O)c(=O)c2cc(F)c(N3CCN(C(=O)Cc4ccccc4Nc4c(Cl)cccc4Cl)CC3)cc21 |  |  |  | MIC | H37Rv |  | 0.33 µM
COc1cccc(/C=C2\CCc3ccccc3C2=O)c1 | 12.5 µg/mL |  |  | inhibition | H37Rv | broth dilution / resazurin | 0%
C[C@H]1C[C@@H]1NC(=O)c1cc2sc(OC3COC3)nc2s1 |  |  |  | MIC | H37Rv | visual reading | 1.35 µM
Cc1c2c(OCCCCN3CCN(c4ncccn4)CC3)nn(C)c(=O)c2c(C)n1-c1ccccc1 | 12.5 µg/mL |  |  | inhibition | H37Rv |  | 43%
N/C(=N\N=C\c1cc(Cl)ccc1O)SCc1ccc(Cl)cc1 |  |  | 14 d | MIC | H37Rv | broth dilution | 16 µM
N#CC1C(c2cc3ccccc3nc2Cl)C2=C(CCCC2=O)N(c2cccnc2)C1N | 6.25 µg/mL |  |  | inhibition | H37Rv |  | 12%
C=CC1=C(C(=O)O)N2C(=O)C(NC(=O)/C(=N\OCC(=O)O)c3csc(N)n3)C2SC1 |  |  |  | MIC | H37Rv | resazurin | 32 µg/mL
CC1=C2N3C[C@@H](n4c(=O)n(C)c(=O)n43)[C@@]23CC[C@@H]1n1c(=O)n(C)c(=O)n13 |  |  |  | MIC bound | H37Rv |  | >6.25 µg/mL
C[C@H]1COc2c(N3CCN(C)CC3)c(F)cc3c(=O)c(C(=O)O)cn1c23 |  |  |  | MIC | 158 strains |  | >16 µg/mL
NC[C@H]1O[C@H](O[C@H]2[C@H](O)[C@@H](O[C@H]3O[C@H](CO)[C@@H](O)[C@H](N)[C@H]3O)[C@H](N)C[C@@H]2N)[C@H](O)[C@@H](O)[C@@H]1O |  |  |  | MIC | A62 |  | 20 µg/mL
N/C(=N\N=C\c1ccccc1O)SCc1ccc(Cl)cc1 |  |  | 14 d | MIC | H37Rv | broth dilution | 8 µM
O[C@H](c1cc(C(F)(F)F)nc2c(C(F)(F)F)cccc12)[C@@H]1CCCCN1 |  |  |  | MIC | H37Ra | resazurin | 20 µM
Clc1cn2cc(-c3ccc(Br)cc3)nc2s1 |  |  |  | MIC | H37Rv |  | >6.25 µg/mL
COc1c(N2CCN(C(=O)Cc3ccccc3Nc3c(Cl)cccc3Cl)C(C)C2)c(F)cc2c(=O)c(C(=O)O)cn(C3CC3)c12 |  |  |  | MIC | H37Rv |  | 0.04 µM
CCOC(=O)C1C(c2cc3ccccc3nc2Cl)C2=C(CCCC2=O)N(c2cccnc2)C1N | 6.25 µg/mL |  |  | inhibition | H37Rv |  | 8%
NCC(=O)NC(CO)C(=O)O |  |  |  | MIC bound | H37Rv | BACTEC | >12.8 µg/mL
O=C1/C(=C/c2ccccc2Cl)COc2ccccc21 | 10 µg/mL |  |  | inhibition | H37Rv | broth dilution / resazurin | 71%
O=c1[nH]c2ccccc2c(=O)n1-c1ccc(F)cc1 |  |  |  | MIC | My 331/88 |  | >250 µM
CCOC(=O)C1C(c2cc3cc(OC)ccc3nc2Cl)C2=C(CCCC2=O)N(c2cccnc2)C1N | 6.25 µg/mL |  |  | inhibition | H37Rv |  | 96%
COc1ccc(OC)c(-c2cn3cc(Cl)sc3n2)c1 | 6.25 µg/mL |  |  | inhibition | H37Rv |  | 0%
Cc1ccc(NC(=O)c2cc3sc(N4CCN(C5COC5)[C@H](C)C4)nc3s2)nc1 |  |  |  | MIC | H37Rv | visual reading | 2.75 µM
COc1ccccc1-c1cn2cc(Cl)sc2n1 |  |  |  | MIC | H37Rv |  | >6.25 µg/mL
CN(C)c1ccc(/C=N/NC(=O)Cc2ccccc2Nc2c(Cl)cccc2Cl)cc1 |  |  |  | MIC | H37Rv |  | 1.76 µM
Clc1ccc(-c2cn3cc(Cl)sc3n2)cc1 |  |  |  | MIC | H37Rv |  | >6.25 µg/mL
Cc1cc2nc3ccc(N=Nc4ccc(N(C)C)cc4)cc3n(-c3ccccc3)c-2cc1=N |  | VERO |  | MIC | H37Rv | resazurin | 0.2 µg/mL
O=c1oc2ccccc2c(=O)n1-c1ccccc1 |  |  |  | MIC | My 331/88 |  | 125 µM
C[C@H]1C[C@@H]1NC(=O)c1cc2sc(N3CCC(N4CCOCC4)CC3)nc2s1 |  |  |  | MIC | H37Rv | visual reading | 2.11 µM
COc1ccc(/C=C(/Cl)c2ccc(OC)c(OC)c2)cc1OC | 12.5 µg/mL |  |  | inhibition | H37Rv | BACTEC | 39%
CCCCCCCCCCCCCCCCn1c(=O)c2c(C)n(CCCC)c(C)c2c(=O)n1C |  |  |  | EC50 | H37Rv |  | >12.5 µg/mL
Cc1ccc(-n2c(=O)[nH]c3ccccc3c2=O)cc1C |  |  |  | MIC | My 331/88 |  | 500 µM
Oc1ccc(Br)cc1-c1nc2cc(Cl)c(Cl)cc2nc1-c1cc(Br)ccc1O |  |  |  | MIC | H37Rv | resazurin | 6.25 µg/mL
CCS/C(N)=N/N=C/c1ccc2cc(Cl)ccc2n1 |  |  |  | MIC | CNCTC TBC1/47 |  | 16 µM
CC1=C(C)C(=O)C(CC2=C(C)C(=O)C(C)=C(C)C2=O)=C(C)C1=O |  |  |  | MIC | KM-R |  | 8 µg/mL
FC(F)(F)c1cccc(-c2cn3cc(Cl)sc3n2)c1 |  |  |  | MIC | H37Rv |  | >6.25 µg/mL
N#CC(Nc1ccccc1Cl)c1ccc(OCc2nc3ccccc3[nH]2)cc1 |  |  |  | MIC | H37Rv | resazurin | 6.25 µg/mL
CN(C)c1ccc(/C=N/NC(=O)c2ccccc2N)c(Cl)c1 |  |  |  | MIC bound | H37Rv | BACTEC | >12.5 µg/mL
O=C1/C(=C/c2cccc(Br)c2)Cc2ccccc21 | 12.5 µg/mL |  |  | inhibition | H37Rv | broth dilution / resazurin | 51%
CCOC(=O)Nc1ccc2nc(-c3cscn3)[nH]c2c1 |  |  |  | MIC bound | H37Rv | resazurin | >6.25 µg/mL
N/C(=N\N=C\c1cc(Br)ccc1O)SCc1ccc(Br)cc1 |  |  | 14 d | MIC | H37Rv | broth dilution | 16 µM
CCC(C)S/C(N)=N/N=C/c1ccncc1 |  |  |  | MIC | CNCTC TBC1/47 |  | 32 µM
COc1ccc(-c2cn3ccsc3n2)cc1 | 6.25 µg/mL |  |  | inhibition | H37Rv |  | 74%
CN(C)c1ccc(/C=N/NC(=O)c2ccncc2)cc1 |  |  |  | MIC | H37Rv | resazurin | 0.2 µg/mL
N/C(=N\N=C\c1cc(Cl)ccc1O)SCc1ccc(Br)cc1 |  |  | 21 d | MIC | H37Rv | broth dilution | 16 µM
N#CC(Nc1ccccc1F)c1ccc(OCc2nc3ccccc3[nH]2)cc1 |  |  |  | MIC | H37Rv | resazurin | 2.81 µg/mL
N/C(=N\N=C\c1ccccc1)SCc1cccc(Cl)c1 |  |  | 21 d | MIC | H37Rv | broth dilution | 62.5 µM
COc1ccc(C2COc3cc(OC(C)=O)c(OC(C)=O)cc3C2)cc1 | 12.5 µg/mL |  |  | inhibition | H37Rv | BACTEC | 10%
N/C(=N\N=C\c1cc(Br)ccc1O)SCc1cccc(Cl)c1 |  |  | 21 d | MIC | H37Rv | broth dilution | 32 µM
CC1(C)S[C@@H]2[C@H](NC(=O)[C@H](N)c3ccc(O)cc3)C(=O)N2[C@H]1C(=O)O |  |  |  | MBC | H37Rv | resazurin | 64 µg/mL
CCC1C[N+]2(C)CCc3cc(OC)c(OC)cc3C2CC1=O |  |  |  | MIC | H37Rv | BACTEC | 12.5 µg/mL
Cc1c2c(OCC(O)CN3CCc4ccccc4C3)nn(C)c(=O)c2c(C)n1-c1ccccc1 | 12.5 µg/mL |  |  | inhibition | H37Rv |  | 6%
CCOC(=O)C1C(c2cc3cc(C)ccc3nc2Cl)C2=C(CCCC2=O)N(c2cccnc2)C1N | 6.25 µg/mL |  |  | inhibition | H37Rv |  | 74%
CCS/C(N)=N/N=C/c1nc2ccccc2n1C |  |  |  | MIC | CNCTC TBC1/47 |  | 32 µM
COCC1=C(C(=O)O)N2C(=O)C(NC(=O)/C(=N/OC)c3csc(N)n3)C2SC1 |  |  |  | MIC | H37Rv | resazurin | >128 µg/mL
C[C@]1(COc2ccc(N3CCC(Oc4ccc(OC(F)(F)F)cc4)CC3)cc2)Cn2cc([N+](=O)[O-])nc2O1 |  |  |  | MIC90 | 36 strains (INH-resistant) |  | 0.013 µg/mL
Oc1ccc(-c2cn3cc(Cl)sc3n2)cc1 |  |  |  | MIC | H37Rv |  | >6.25 µg/mL
O=S(=O)(O)c1cc(N=Nc2cc(S(=O)(=O)O)c3cccnc3c2O)ccc1/C=C/c1ccc(N=Nc2cc(S(=O)(=O)O)c3cccnc3c2O)cc1S(=O)(=O)O |  |  |  | MIC bound | H37Rv | BACTEC | >12.5 µg/mL
Clc1cn2cc(-c3ccncc3)nc2s1 |  |  |  | MIC | H37Rv |  | >6.25 µg/mL
O=C(Cc1ccccc1Nc1c(Cl)cccc1Cl)N/N=C/c1ccc([N+](=O)[O-])cc1 |  |  |  | MIC | H37Rv |  | 1.76 µM
NNC(=O)C1C2c3ccccc3C(c3ccccc32)C1C(=O)O | 12.5 µg/mL |  |  | inhibition | H37Rv | BACTEC | 3%
O=[N+]([O-])c1ccc(-c2cn3ccsc3n2)cc1 |  |  |  | MIC | H37Rv |  | >6.25 µg/mL
NNC(=O)c1ccncc1 |  |  |  | MIC | H37Ra | resazurin | 1.9 µM
CCOP(=O)(OCC)C(NC(=O)OCC(Cl)(Cl)Cl)n1nnc(C(=O)OC)c1C(=O)OC | 6.25 µg/mL |  |  | inhibition | H37Rv | resazurin | 20%
COC(=O)N1CC[C@@H](Oc2nc3sc(C(=O)NC4CCC4)cc3s2)C1 |  |  |  | MIC | H37Rv | visual reading | 0.48 µM
CCS/C(N)=N/N=C/c1ccccc1O |  |  |  | MIC | CNCTC TBC1/47 |  | 63 µM
CCc1c(O)nc(Nc2nc3ccccc3[nH]2)[nH]c1=O | 6.25 µg/mL |  |  | inhibition | H37Rv | BACTEC | 56%
CCS/C(N)=N/N=C/c1ccc2ccccc2n1.CCS/C(N)=N/N=C/c1ccc2ccccc2n1 |  |  |  | MIC | CNCTC TBC1/47 |  | 16 µM
COc1ccc(/C=C2\COc3ccccc3C2=O)cc1 | 10 µg/mL |  |  | inhibition | H37Rv | broth dilution / resazurin | 59%
N/C(=N\N=C\c1ccccc1O)SCc1ccc(F)cc1 |  |  | 14 d | MIC | H37Rv | broth dilution | 32 µM
COC(=O)C1=CCC2C(C(=O)O)=COC(OC3OC(CO)C(O)C(O)C3O)C12 | 12.5 µg/mL |  |  | inhibition | H37Rv | BACTEC | -2%
CS/C(N)=N/N=C/c1ccc2ccccc2n1 |  |  |  | MIC | CNCTC TBC1/47 |  | 125 µM

The last 7 rows once more:

structure | dose | cell line | setting | endpoint | strain | read by | value
CCS/C(N)=N/N=C/c1ccccc1O |  |  |  | MIC | CNCTC TBC1/47 |  | 63 µM
CCc1c(O)nc(Nc2nc3ccccc3[nH]2)[nH]c1=O | 6.25 µg/mL |  |  | inhibition | H37Rv | BACTEC | 56%
CCS/C(N)=N/N=C/c1ccc2ccccc2n1.CCS/C(N)=N/N=C/c1ccc2ccccc2n1 |  |  |  | MIC | CNCTC TBC1/47 |  | 16 µM
COc1ccc(/C=C2\COc3ccccc3C2=O)cc1 | 10 µg/mL |  |  | inhibition | H37Rv | broth dilution / resazurin | 59%
N/C(=N\N=C\c1ccccc1O)SCc1ccc(F)cc1 |  |  | 14 d | MIC | H37Rv | broth dilution | 32 µM
COC(=O)C1=CCC2C(C(=O)O)=COC(OC3OC(CO)C(O)C(O)C3O)C12 | 12.5 µg/mL |  |  | inhibition | H37Rv | BACTEC | -2%
CS/C(N)=N/N=C/c1ccc2ccccc2n1 |  |  |  | MIC | CNCTC TBC1/47 |  | 125 µM